Earlier results as cited in patent US6991818B2, “Compound iso-squamocin obtained from seeds of annona squamosa and composition containing the same” (Council of Scientific & Industrial Research, priority 2001, dated 2006).

Test system: yellow fever mosquito Aedes aegyptii
Settings: cited from earlier work

asimicin/squamocin-H
LC 50: 2.7 mg/lit^−1
